Compound potency records, mixed from different reports. Data source: NIAID ChemDB in PubChem.

Common to all: cytotoxicity tests; cells: HepG2; read-out: CC50

Blank or dashed fields: not listed here.

compound	method	value
O=C(Oc1ccc(Cl)cc1C(=O)Nc1cccc(C(F)(F)F)c1)c1cnccn1	-	6.28 µM
CC(C)Cc1ccc2c(NCCCNCc3ccco3)ccnc2c1	fluorescence	16 µM
Cc1cc(Cl)ccc1OCc1nn2c(-c3ccc(Br)cc3)nnc2s1	resazurin	19.57 µM
Nc1nc(=O)n(C2CC[C@@H](CO)O2)cc1[N+](=O)[O-]	-	>10 µM
CCCCCC[C@H](C)CC1=C(O)c2ccccc2C(=O)C1=O	MTT	>66.58 µM
CC(=O)N1CC[C@@H](NC(=O)C(=O)c2c(C)c(C(=O)Nc3ccc(F)c(C)c3)c(C)n2C)C(F)(F)C1	MTT	>30 µM
O=[N+]([O-])c1ccc(OCc2nn3c(Cc4ccc5ccccc5c4)nnc3s2)cc1	resazurin	15.19 µM
CC1(C)CCc2c(C(=O)Oc3ccc([N+](=O)[O-])cc3)c(O)c3ccccc3c2O1	MTT	50 µg/mL
CC[C@H]1OC(=O)[C@H](C)[C@@H](O)[C@H](C)[C@@H](O[C@@H]2O[C@H](C)C[C@H](N(C)C)[C@H]2OCCCN(C)Cc2cnc3ccccc3c2)[C@](C)(O)C[C@@H](C)CN(C)[C@H](C)[C@@H](O)[C@]1(C)O	MTS	>100 µM
Nc1cn([C@H]2CC[C@@H](CO)O2)c(=O)nc1N	-	>10 µM
CC[C@H]1OC(=O)[C@H](C)[C@@H](O)[C@H](C)[C@@H](O[C@@H]2O[C@H](C)C[C@H](N(C)C)[C@H]2OCCCNC(=O)CCCNc2ccnc3cc(Cl)ccc23)[C@](C)(O)C[C@@H](C)CN(C)[C@H](C)[C@@H](O)[C@]1(C)O	MTS	75 µM
CCc1c(C(=O)Nc2ccc(F)c(C)c2)c(C)c(C(=O)C(=O)NC2(C)CCC(O)CC2)n1C	MTT	>30 µM
FC(F)(F)c1ccc(-c2ccc3c(NCCCNCc4ccco4)ccnc3c2)cc1	fluorescence	3.47 µM
CC[C@H]1OC(=O)[C@H](C)[C@@H](O)[C@H](C)[C@@H](O[C@@H]2O[C@H](C)C[C@H](N(C)C)[C@H]2OCCCNC(=O)CNc2ccnc3cc(Cl)ccc23)[C@](C)(O)C[C@@H](C)CN(C)[C@H](C)[C@@H](O)[C@]1(C)O	MTS	>100 µM
Cc1c(Cc2ccccc2)sc(NC(=O)c2ccccc2Cl)c1C(N)=O	luminescence	>100 µM
Fc1ccc(-c2nnc3sc(COc4ccccc4)nn23)cc1	resazurin	15.19 µM
CC[C@H]1OC(=O)[C@H](C)[C@@H](O[C@H]2C[C@@](C)(OC)[C@@H](O)[C@H](C)O2)[C@H](C)[C@@H](O[C@@H]2O[C@H](C)C[C@H](N(C)C)[C@H]2OCCCN(C)Cc2ccnc3ccccc23)[C@](C)(O)C[C@@H](C)CN(C)[C@H](C)[C@@H](O)[C@]1(C)O	MTS	45 µM
O=[N+]([O-])c1ccc(OCc2nn3c(-c4ccc(Cl)cc4)nnc3s2)cc1	resazurin	10.95 µM
CC[C@H]1OC(=O)[C@H](C)[C@@H](O)[C@H](C)[C@@H](O[C@@H]2O[C@H](C)C[C@H](N(C)C)[C@H]2OCCCNc2ccnc3cc(Cl)ccc23)[C@](C)(O)C[C@@H](C)CN(C)[C@H](C)[C@@H](O)[C@]1(C)O	MTS	83 µM
Fc1ccccc1-c1nc2ccn(Cc3ccc(-c4ccc(C(F)(F)F)cc4C(F)(F)F)nn3)cc-2n1	MTT	25 µg/mL
CCc1ccc([C@H]2C[C@@H](C(F)(F)F)n3ncc(C(=O)NCc4ccc5c(c4)OCO5)c3N2)cc1	resazurin	>25 µM
CC[C@H]1OC(=O)[C@H](C)[C@@H](O[C@H]2C[C@@](C)(OC)[C@@H](O)[C@H](C)O2)[C@H](C)[C@@H](O[C@@H]2O[C@H](C)C[C@H](N(C)C)[C@H]2OCCCNC(=O)CNc2ccnc3ccccc23)[C@](C)(O)C[C@@H](C)CN(C)[C@H](C)[C@@H](O)[C@]1(C)O	MTS	>100 µM
CCc1c(C(=O)Nc2ccc(F)c(C)c2)c(C)c(C(=O)C(=O)NC2CCC(O)CC2)n1C	MTT	5–30 µM
Brc1c(-c2ccccc2)nc2ccccn12	luminescence	>100 µM
COC(=O)c1c2c(c3ccccc3c1OC)OC(C)(C)CC2	MTT	25 µg/mL
CC[C@H]1OC(=O)[C@H](C)[C@@H](O[C@H]2C[C@@](C)(OC)[C@@H](O)[C@H](C)O2)[C@H](C)[C@@H](O[C@@H]2O[C@H](C)C[C@H](N(C)C)[C@H]2OCCCNc2ccnc3cc(Cl)ccc23)[C@](C)(O)C[C@@H](C)CN(C)[C@H](C)[C@@H](O)[C@]1(C)O	MTS	45 µM
Nc1cn([C@@H]2CC[C@@H](CO)O2)c(=O)[nH]c1=O	-	>10 µM
O=C(N/C(C(=O)N1CCCCC1)=C(/Cl)c1ccccc1)c1ccccc1	-	>81 µM
COc1cccc(CNCCCNc2ccnc3cc(Oc4cccc(N(C)C)c4)ccc23)c1O	fluorescence	7.3 µM
CC[C@H]1OC(=O)[C@H](C)[C@@H](O[C@H]2C[C@@](C)(OC)[C@@H](O)[C@H](C)O2)[C@H](C)[C@@H](O[C@@H]2O[C@H](C)C[C@H](N(C)C)[C@H]2OCCC(=O)NCCNc2ccnc3cc(Cl)ccc23)[C@](C)(O)C[C@@H](C)CN(C)[C@H](C)[C@@H](O)[C@]1(C)O	MTS	18 µM
COc1ccc2c3conc3c(=O)n(CCCN3C[C@@H]4CN(c5ccc6c(n5)NC(=O)CO6)C(=O)O[C@H]4C3)c2c1	luminescence	10–100 µg/mL
Nc1nc(=O)n([C@@H]2C[C@H](O)[C@@H](CO)O2)cc1[N+](=O)[O-]	-	>10 µM
COc1ccc2ccc(=O)n(CCN3C[C@@H]4CN(c5ccc6c(n5)NC(=O)CO6)C(=O)O[C@H]4C3)c2n1	luminescence	>100 µg/mL
CC[C@H]1OC(=O)[C@H](C)[C@@H](O[C@H]2C[C@@](C)(OC)[C@@H](O)[C@H](C)O2)[C@H](C)[C@@H](O[C@@H]2O[C@H](C)C[C@H](N(C)C)[C@H]2OCCCN(C)Cc2cnc3ccccc3c2)[C@](C)(O)C[C@@H](C)CN(C)[C@H](C)[C@@H](O)[C@]1(C)O	MTS	47 µM
CC1=C2C3B(OCCOC3C=C1)O[C@@H]2CN	resazurin / fluorescence	971 µM
OCc1cn(-c2ccc(F)cc2)nc1-c1ccc(Cl)cc1	luminescence	66 µM
Cc1cc(NC(=O)c2c(C(C)C)c(C(=O)C(=O)N[C@H](C)C(F)(F)F)n(C)c2C)ccc1F	MTT	>30 µM
C[C@@H]1O[C@@H](O[C@@H]2Cc3c(O)cc(O)cc3O[C@@H]2c2ccc(O)c(O)c2)[C@H](O)[C@H](O)[C@H]1O	MTT	>120 µM
Cc1cc(OCC(=O)N2CCC(C)CC2)ccc1Br	luminescence	93 µM
CCOC(=O)c1cc(O)c(O)c(O)c1	MTS	>200 µM
CC1(C)CCc2c(C(=O)Oc3ccccc3)c(O)c3ccccc3c2O1	MTT	12.5 µg/mL
Cc1c(C(=O)Nc2cccc(S(N)(=O)=O)c2)c(C)n(C)c1C(=O)C(=O)NC(C)(C)C	MTT	>30 µM
O=C(CSc1ccc(Cl)cc1)Nc1ccc(F)c(Cl)c1	luminescence	>100 µM
COc1ccc(F)cc1CNCCCNc1ccnc2cc(CC3CCCCC3)ccc12	fluorescence	1.83 µM
Nc1c(C(=O)Cc2ccccc2)sc2ccc(Cc3ccccc3)c(-c3ccc(F)cc3)c12	luminescence	>100 µM
O=C(Oc1cc(Cl)ccc1C(=O)Nc1ccc(C(F)(F)F)cc1)c1cnccn1	-	3.68 µM

a–b is a range or a potency band. Rows are shuffled and stem from different studies. CCn is the concentration with n% toxicity to the cells.